Results of unrelated studies side by side (data: NIAID ChemDB).

All rows: enzyme or target tests; organism: HIV-1; protein: Reverse transcriptase; read-out: IC50

ICn is the concentration giving n% inhibition. Lines come from different laboratories, so protocols vary. Blank or dashed fields: not listed here.

compound,strain,mutations,method,value
CCCCCCCCCCCCCc1cccc(O)c1,,,RT activity / RNase H,>200 µM
Oc1cc(O)c2c(c1)O[C@H](c1ccc(O)c(O)c1)[C@H](O)[C@H]2c1c(O)cc(O)c2c1O[C@@]1(c3ccc(O)c(O)c3)Oc3cc(O)c4c(c3[C@@H]2[C@H]1O)O[C@H](c1ccc(O)c(O)c1)[C@H](O)[C@H]4c1c(O)cc(O)c2c1O[C@H](c1ccc(O)c(O)c1)[C@H](O)C2,,,nucleotide incorporation,>20 µg/mL
COc1cccc(S(=O)(=O)n2c(=O)[nH]c3ccc(Cl)cc32)c1,,Wild type,nucleotide incorporation,0.05 µM
COC(=O)[C@H](Cc1c[nH]c2ccccc12)NP(=O)(O)OC[C@H]1O[C@@H](n2cc(C)c(=O)[nH]c2=O)C[C@@H]1N=[N+]=[N-],,,,>100 µM
CNc1cccnc1N1CCN(C(=O)c2cc3ccccc3[nH]2)CC1,,,nucleotide incorporation,<100 µM
COC(=O)[C@H](Cc1c[nH]c2ccccc12)NP(=O)(OCCC#N)OC[C@H]1O[C@@H](n2cc(C)c(=O)[nH]c2=O)C[C@@H]1N=[N+]=[N-],,,,>100 µM
CCCCCCCCCCCCCc1cc(O)cc(O)c1,,,RT activity / RNase H,>200 µM
CC(C)Nc1cccnc1N1CCN(C(=O)c2cc3cc4c(cc3[nH]2)OCO4)CC1,,,nucleotide incorporation,<100 µM
O=C(/C=C/c1cccn1Cc1ccccc1Cl)CC(=O)C(=O)O,,,RT activity / nucleotide incorporation,40 µM
CCOC(=O)c1c(O)c2cc(Oc3ccc(N(CC)CC)cc3)cnc2n(O)c1=O,,,luminescence,0.22 µM
CC(C)Nc1cccnc1N1CCN(C(=O)c2cc3ccc(N(C)C)cc3[nH]2)CC1,,,nucleotide incorporation,<100 µM
CCN1c2ncc(CCOc3ccc(CCC(=O)O)c4ccccc34)cc2C(=O)N(C)c2ccc(F)nc21,,RT-V106A,nucleotide incorporation / radiometric,>1 µM
O=C(OC1[C@H](O)CC(O)(C(=O)O)C[C@H]1O)c1cc(O)c(O)c(O)c1,,,nucleotide incorporation,>20 µg/mL
CCN1c2ncc(CCc3ccc4cc[nH]c4c3)cc2C(=O)N(C)c2ccc(Cl)nc21,,RT-Y181C,nucleotide incorporation / radiometric,<1 µM
Cc1cnc(=O)n([C@H]2C[C@H](F)[C@@H](CO)O2)c1,,,,3.6 µM
Oc1cc(O)c2c(c1)O[C@@]1(c3ccc(O)c(O)c3)Oc3cc(O)c4c(c3[C@@H]2[C@H]1O)O[C@H](c1ccc(O)c(O)c1)[C@H](O)C4,,,nucleotide incorporation,>20 µg/mL
CC(=O)Nc1ccc2[nH]c(C(=O)N3CCN(c4ncccc4NC(C)C)CC3)cc2c1,,,nucleotide incorporation,<100 µM
CCN1c2ncc(CC(F)c3ccncc3)cc2C(=O)N(C)c2ccc(Cl)nc21,,RT-Y181C,nucleotide incorporation / radiometric,<1 µM
C[C@@H]1Cc2c(-c3cc(-c4cc(-c5c(O)cc(O)c6c5C[C@@H](C)N[C@@H]6C)c5ccccc5c4O)c(O)c4ccccc34)c(O)cc(O)c2[C@@H](C)N1,,,nucleotide incorporation,62 µM
Cc1cn([C@H]2C[C@H](F)[C@@H](CO)O2)c(=O)nc1N,,,,0.6 µM
C#CC(O)/C=C/C/C=C/C=C/C=C/CC#CC(O)C#CC/C=C/C=C/C=C/CC(O)C#C,,,radiometric,0.95 µM
CCc1c(-c2coc(CC/C(C)=C/c3ccccc3)n2)oc(OC)c(C)c1=O,,,,142 µg/mL
CC(C)Nc1ccnnc1N1CCN(C(=O)c2cc3cc(F)ccc3[nH]2)CC1,,,nucleotide incorporation,<100 µM
CCCCCCCCCCCCCCCc1cccc(O)c1,,,RT activity / nucleotide incorporation,>100 µM
O=c1[nH]c(=O)n([C@H]2C[C@H](F)[C@@H](CO)O2)cc1/C=C/Br,,,,0.015 µM
Cc1ccc2[nH]c(C(=O)N3CCN(c4ncccc4NC(C)C)CC3)cc2c1,,,nucleotide incorporation,<100 µM
O=C(O[C@@H]1[C@@H](c2c(O)cc(O)c3c2O[C@H](c2ccc(O)c(O)c2)[C@H](OC(=O)c2cc(O)c(O)c(O)c2)C3)c2c(O)cc(O)cc2O[C@@H]1c1ccc(O)c(O)c1)c1cc(O)c(O)c(O)c1,,,nucleotide incorporation,>20 µg/mL
CCN1c2ncc(CC(=O)c3ccncc3)cc2C(=O)N(C)c2ccc(Cl)nc21,WT,,nucleotide incorporation / radiometric,<1 µM
[N-]=[N+]=N[C@H]1C[C@H](n2ccc(=O)[nH]c2=O)O[C@@H]1COP(=O)(O)OP(=O)(O)OP(=O)(O)O,LAV,,,0.0096 µM
CC(C)=CCN1Cc2cccc3[nH]c(=S)n(c23)C[C@@H]1C,,RT-Y181C,nucleotide incorporation,2.01 µM
Cc1cn([C@H]2C[C@H](F)[C@@H](CO)O2)c(=O)[nH]c1=S,,,,0.2 µM
COCCn1c(=O)nc(-c2cnc(N3CCN(C)CC3)nc2)c2oc3ccccc3c21,BH10,,PicoGreen / fluorescence,0.04 µM
Cc1cn([C@@]23CC2[C@H](COP(=O)(O)OP(=O)(O)OP(=O)(O)O)[C@@H](N=[N+]=[N-])C3)c(=O)[nH]c1=O,BH10,,,>1 µM
CCn1c(C)c(C(=O)OC)c(C(=O)OC)c1Cc1ccccc1,IIIB,,,1.1 µM
Cc1cc(=O)c2c(O)c3c(O)cc(O)c4c5c(O)cc(O)c6c(O)c7c(=O)cc(CO)c8c1c2c(c34)c(c65)c78,,,RT activity,<20 µg/mL
CCOC(=O)C(=O)CC(=O)/C=C/c1cccn1Cc1ccc(C)cc1C,,,RT activity / nucleotide incorporation,12.1 µM
CCc1cn([C@H]2CC[C@@H](COP(=O)(O)OP(=O)(O)OP(=O)(O)O)O2)c(=O)[nH]c1=O,LAV,,,0.116 µM
CCOC(=O)C(=O)CC(=O)/C=C/c1cc(-c2ccccc2)cn1Cc1ccc(F)cc1,,,RT activity / nucleotide incorporation,>50 µM
CCNc1cccnc1N1CCN(C(=O)c2cc3ccccc3[nH]2)CC1,,,nucleotide incorporation,<100 µM
Cc1cc(S(N)(=O)=O)ccc1NC(=O)COc1ccccc1C(=O)c1cc(Cl)cc(C#N)c1,,,fluorescence,>100 µM
CC(C)Nc1cccnc1N1CCN(C(=O)c2cc3ccc(O)cc3[nH]2)CC1,,RT-Y188L,scintillation proximity,2.86 µM
COc1ccc2cc(C(=O)N3CCN(c4ncccc4NC(C)C)CC3)[nH]c2c1Br,,,nucleotide incorporation,<100 µM

For reference, 3 entries again:

compound,strain,mutations,method,value
Cc1cn([C@@]23CC2[C@H](COP(=O)(O)OP(=O)(O)OP(=O)(O)O)[C@@H](N=[N+]=[N-])C3)c(=O)[nH]c1=O,BH10,,,>1 µM
CCn1c(C)c(C(=O)OC)c(C(=O)OC)c1Cc1ccccc1,IIIB,,,1.1 µM
CCCCCCCCCCCCCc1cc(O)cc(O)c1,,,RT activity / RNase H,>200 µM